Data source: PubChem BioAssay AID504761 (Drosophila RNAi Screening Center, 2011)
The deposit covers about 22,000 reagents; this is a random part of those that have a named target and a result. Of all reagents, 116 (0.52%) were called active. 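Calls depend on retest data that are not deposited; infection was ranked per plate without normalising between plates; the unit of the infection score is not given.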 The raw values are shown without normalisation. Entries without a mark were called inactive. Reagents against one gene are numbered here. Names joined by + are all predicted targets of the reagent. Not stated in the record: the amount of reagent, the time to read-out.

Aim: 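Insect host genes that dengue virus relies on to spread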 (primary screen)
Cells: D.Mel-2 cells from Drosophila
Reagents: long dsRNA against Drosophila genes
Treatment: infection with dengue virus type 2; dose and infection time not stated
Read-out: 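Cells stained for dengue envelope protein and imaged; percent of infected cells per well on duplicate plates, ranked by infection, with stained nuclei counted for cell number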
Direction: infection score: higher = more virus-infected cells; cell count: higher = more cells in the well
Active means: 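Low infection ranks in the two replicates (chance level up to 0.065) followed by a retest with a 1.5-fold or larger significant decrease, p below 0.05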
Calls: active = confirmed: knock-down lowers infection; inactive = not picked or not confirmed

Gene	dsRNA no.	infection score, replicate 1	infection score, replicate 2	cell count, replicate 1	cell count, replicate 2
Rpp21 (Ribonuclease P/MRP subunit p21)	1	3.01		5940	460
Rpp21 (Ribonuclease P/MRP subunit p21)	2	10.5	30.4	5334	5667
CG3984	1	3.43	14	5706	5961
Moe (Moesin)	1	2.53	0.83	6490	6621
CG31251	1	2.2	0.57	6229	6834
obe (obelus)	1	1.9 (active)	2.61	6196	6201
parvin	1	3.31	6.58	3869	5166
parvin	2	22	12.5	4462	3685
CG12708	1	4.76	7.12	6323	4242
CG4956	1	12.7		5571	322
CG4956	2	3.97	4.03	6097	6232
Bmcp	1	11.2	23.5	2617	5230
CG2901	1	1.61	0.47	6197	6016
CG1847	1	2.69	1.67	6540	6305
cola + swif	1	4.61	17.4	6918	6268
cola + swif	2	3.29	6.07	6755	5473
CG1463	1	4.67	2.31	6815	6528
Pex1 (Peroxin 1)	1	4.31	3.24	6656	6635
Pc (Polycomb)	1	3.85	5.11	6933	6085
CG30103	1	21.8	26.7	5449	5774
CG30103	2	13.6	6.81	6333	6550
Pgm2a (Phosphoglucomutase 2a)	1	21.9	5.93	5648	6324
Drip	1	15.7	7.99	3879	6222
Spindly	1	4.33	1.85	5339	5506
CG30031 + deltaTry + CG30025 + 1 more	1	1.79	2.85	6184	5852
CG14420	1	3.66		793	286
CG14420	2	1.54	5.49	5726	5576
Tim13	1	1.72	4.55	5682	6171
Jon25Biii (Jonah 25Biii)	1	11.8	9.11	4975	5698
Jon25Biii (Jonah 25Biii)	2	7.7	7.13	5692	4823
CG30054	1	5.46	0.44	6316	5958
Snx16 (Sorting nexin 16)	1	13.7	6.57	6348	6121
CG18467	1	13.6	11.7	5628	6703
RFeSP (Rieske iron-sulfur protein)	1	4	6.86	6328	6778
RFeSP (Rieske iron-sulfur protein)	2	10	9.02	5649	5265
CG31793	1	2.62	9.41	6630	6528
CG31793	2	2.86	4.7	6321	6342
ctrip (circadian trip)	1	5.48	5.88	7195	6891
ctrip (circadian trip)	2	9.37	12.3	6597	6618
ctrip (circadian trip)	3	0.73	6.71	7232	6991
ctrip (circadian trip)	4	24.6	13.4	5515	3041
ctrip (circadian trip)	5	2.29	10.5	7409	6330
CG4074 + CG4186	1	3.67	6.42	6319	6327
scramb1 (scramblase 1)	1	1.98	2.64	5416	5767
scramb1 (scramblase 1)	2	3.11	3.09	5732	5657
scramb1 (scramblase 1)	3	0.97	4.92	5899	5369
CG31365	1	6.99	24.5	6391	6491
CG34355	1	1.08	6.41	6790	7048
CG34355	2	0.78	4.63	6302	6282
CG34355	3	1.93	0.52	6481	6323
CG34355	4	3.34	4.83	5336	5626
CG3588	1	3.81	2.85	5538	841
CG3588	2	3.74	5.06	6603	6484
CG13601	1	5.16	8.29	6322	6450
eIF3a (eukaryotic translation initiation factor 3 subunit a)	1	9.28	9.86	2068	1673
eIF3a (eukaryotic translation initiation factor 3 subunit a)	2	4.79	5.03	1399	716
CG10809	1	0.38	2.45	6789	6447
CG10809	2		1.97	344	1066
